Data published in patent US9988424 (DUKE UNIVERSITY, dated 2018).
Several values for one entry are separate records, joined by “and”; a condition that tells them apart may be missing. Equal entries are not always repeated.

Columns and labels:
Env of SHIV-1157ipd3N4 [1] = biological target: Env of SHIV-1157ipd3N4 (SHIV); assay: cell-based or functional assay
Env of SHIV-1157ipEL-p [2] = biological target: Env of SHIV-1157ipEL-p (SHIV); assay: cell-based or functional assay
Env of SHIV-SF162P4 [3] = biological target: Env of SHIV-SF162P4 (SHIV); assay: cell-based or functional assay
[4] = biological target: J08 A.92RW020V1V2/N156QN160Q (HIV-1)
B.62357 140C [5] = biological target: T1, B.62357 140C; assay: ELISA, OD405
T1 construct: also called B.62357 gp140C

B.63521 gp140C = assay: ELISA, OD405
B.040 gp140C = assay: ELISA, OD405
[6] = biological target: T2, J08 A.92RW020V1V2/N156QN160Q (HIV-1); assay: ELISA
T2 construct: also called J08 A.92RW020VV1V2/N156QN160Q

[7] = biological target: T3, J08 B.HXB2/BALV1V2N156QN160Q (HIV-1); assay: ELISA
T3 chain: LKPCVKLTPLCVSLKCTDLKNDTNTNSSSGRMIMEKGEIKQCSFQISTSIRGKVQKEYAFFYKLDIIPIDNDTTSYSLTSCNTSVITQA

B.62357 140C [8] = biological target: T4, B.62357 140C; assay: ELISA OD405nm, bar chart, antibody concentration not given
T4 construct: also called B.62357 gp140C

Env of SHIV-1157ipd3N4 [9] = biological target: Env of SHIV-1157ipd3N4 (SHIV); assay: cell-based or functional assay; remark: listed apart in the source
Env of SHIV-1157ipEL-p [10] = biological target: Env of SHIV-1157ipEL-p (SHIV); assay: cell-based or functional assay; remark: listed apart in the source
Env of SHIV-SF162P4 [11] = biological target: Env of SHIV-SF162P4 (SHIV); assay: cell-based or functional assay; remark: listed apart in the source

B1: CH58 (antibody, V domains shown)
VH: EVQLVQSGAEVKKPGESLKISCKGSGYRFTSYWIVWVRQMPGKGLEWMGIIYPGDFDTKYSPSFQGQVTISADKSISTAYLQWSSLKASDTAMYYCARLGGRYYHDSSGYYYLDYWGQGTLVTVSS
VL: NFMLTQPHSVSESPGKTVTISCTRSSGSVASDYVQWYQQRPGSAPTTVVYEDNQRPSGVPDRFSGSIDSSSNSASLTISGLKTEDEADYYCQSYDNSSWVFGGGTKLTVL
Q: With B1 as the binder, how does the “EC50, neutralization of SHIVC.1157ipd3N4 (tier 2)” value (Env of SHIV-1157ipd3N4 [1]) read?
A: > 50 µg/mL

Q: What about the “EC50, neutralization of SHIV C.1157ipEL-p (tier 1A)” value (Env of SHIV-1157ipEL-p [2]) of the same binder?
A: 37.6 µg/mL

Q: And the “EC50, neutralization of SHIV B.SF162P4 (tier 2)” value (Env of SHIV-SF162P4 [3])?
A: > 50 µg/mL

Q: What about the Kd [4] of the same binder?
A: 413 nM and 450 nM

Q: Does B1 bind (B.62357 140C [5])?
A: no binding (tested: 10 ug/ml)

Q: Does B1 bind (B.63521 gp140C)?
A: no binding (tested: 10 ug/ml)

Q: Does B1 bind (B.040 gp140C)?
A: no binding (tested: 10 ug/ml)

Q: And the EC50 [6]?
A: 3 nM

Q: What about the EC50 [7] of the same binder?
A: > 667 nM

Q: Does B1 bind (B.62357 140C [8])?
A: no binding (tested: not given)

Q: And the “EC50, neutralization of SHIV-1157ipd3N4” value (Env of SHIV-1157ipd3N4 [9])?
A: > 50 µg/mL

Q: And the “EC50, neutralization of SHIV-1157ipEL-p” value (Env of SHIV-1157ipEL-p [10])?
A: 37.6 µg/mL

Q: And the “EC50, neutralization of SHIV-SF162P4” value (Env of SHIV-SF162P4 [11])?
A: > 50 µg/mL
